Measurements reported in PubChem BioAssay AID624173 (National Center for Advancing Translational Sciences (NCATS), 2012).
This is a selection; strong and weak results do not stand in their true shares. Calls of active or inactive are those of the source. Calls follow the shape of the dose curve; as a rule, active = well fitted inhibition curve with a large enough effect; inconclusive = small, poorly fitted or top-dose-only effect; inactive = flat fitted curve, though single readings scatter.

biological target: pyruvate kinase (Trypanosoma brucei) (UniProt Q57TT1); assay: qHTS of Trypanosoma Brucei Inhibitors; settings: TbPYK enzyme, Kinase-Glo Plus ATP luminescence, 45 min; at 76.8 µM (top of the series); also: nearly all actives have a fitted effect of over 50% in size
% is scaled to controls: 0 for no effect and ±100 for the full control effect.

Compound | activity, negative = inhibition
COc1ccc(OP(C)(=O)Nc2ccc(SC(F)(F)F)cc2)cc1 (stereo unspecified) | inactive: 2.71%
